Data on two sequences can be found in PMC11139207.

The series deals with Lsr2 (Mycobacterium smegmatis MC2 155) (UniProt A0R576). The series is described as follows: EMSA. To be noted: room temperature, 20 min, binding buffer not given (as described previously), protein storage buffer 20 mM Tris-HCl, 100 mM NaCl, 1 mM DTT, 10% glycerol, recombinant protein, residues 1-114, protein details: His-GST (pGEX-6T-1), probe letters rebuilt from the primers and the genome.

As to “GAAATAGCGTGTGCCCAAGAGGGTTCCGCCGCCGATCACCTGCGCGCTGCGCCGCAACAACCGGTTACGACCCGACACCACCGCACGCAACCGCTCCCCCGGCAACACCGGAAGATCCACAAACCCCGCGCCCGGCAACTGCGCACACACCGCGTCATAAATCGCGTCATCACCCAGATTGCCCCGACCATGCCACCCCAGATAACCCACCAAGGGACGCACAGTGGCGGCGGTCGCACGATTGTCGGTTGCCCGGTTCAGGCTCATGAAAACTCTCTGGCGTTCGGCTTGAATTGTTCATCGAAAAGGTGCGCGCCGTCCGTCGCACTCGCAGATGGGCGGGCCGATGAAGGATCCAACGGTACCCCGCCACGTGGCCTGCGGCCATCTTCGGTCATACTGGTGGTATCCGGTCGGCCCACGAAAAGACGCGTTTGTCGCGTCGATGCTAGCCTCCCGGAAAACAACAGGTGTGGTGGGCGGCCCCGATCCGGGTCGCCCCGATTGCGGCGCACCGATTCGACGACGTCGAAATTTCACATGCTCGAGGAGTTTTAGCAA (double strand) [S3 (MSMEG_4737p)]”, the binding result is given as “binds”.

With “GGCGGCGGGAAGTCGACCGCGACGAACACGGCCCGCGGTGGGAGTTCGAACGCAGGCAACCGATTTCCGACGATGATGATGAGATGGTCGTCACAGGACTGCCGGCTGACCGATCGAAGCGTGTCCTGAAGCAGCGCTTCGACGCGACCGTAATCCGCGGAGTTCCGCGGATGTCGCAAGGTGGTGATGAAGGCCAGCATCGCGGGGAACTCTACCGAGTTCAGAGCGTTATCACGAATCGGTGAACGCCCAAATAATCAGCCGGACAGCACATTACGTGATCTTGGAATCGCGGCAAACCACAGTGGGTTTGCTCCGCGTCACCGA (double strand) [S2 (MSMEG_4735p)]”, the binding result is reported as “binds”.
